Compound potency records, mixed from different reports. Data source: NIAID ChemDB in PubChem.

Common to all: growth or infection tests; organism: Candida albicans; read-out: MIC50

Conditions beyond the fields shown may differ between rows. a–b is a range or a potency band. An empty or dashed field is not shown. MIC50, MIC90 and the like: level of inhibition, or share of isolates inhibited.

SMILES | strain or isolate | result
C[C@H]1[C@H](O)[C@@H](C)/C=C/C=C/C=C/C=C/C=C/C=C/C=C/[C@H](O[C@@H]2O[C@H](C)[C@@H](O)[C@H](N)[C@@H]2O)C[C@@H]2O[C@](O)(C[C@@H](O)C[C@@H](O)CC[C@H](O)[C@@H](O)C[C@@H](O)CC(=O)O[C@H]1C)C[C@H](O)[C@H]2C(=O)O | 183 strains | 0.125 µg/mL
Clc1ccc(COC(Cn2ccnc2)c2ccc(Cl)cc2Cl)cc1 |  | 6.25 µg/mL
Nc1nc(=O)n([C@H]2CS[C@@H](CO)O2)cc1F | 206 isolates | 0.25 µg/mL
C#CCOC(=O)c1ccc(S(N)(=O)=O)cc1 |  | >100 µg/mL
CCCCCOc1ccc(-c2ccc(-c3ccc(C(=O)N[C@H]4C[C@@H](O)[C@@H](O)NC(=O)[C@@H]5[C@@H](O)[C@@H](C)CN5C(=O)[C@H]([C@H](C)O)NC(=O)[C@H]([C@H](O)[C@@H](O)c5ccc(O)cc5)NC(=O)[C@@H]5C[C@@H](O)CN5C(=O)[C@H]([C@H](C)O)NC4=O)cc3)cc2)cc1 | 183 strains | 0.06 µg/mL
C#CCNC(=O)c1ccc(S(N)(=O)=O)cc1 |  | >100 µg/mL
CCCCCOc1ccc(-c2ccc(-c3ccc(C(=O)N[C@H]4C[C@@H](O)[C@@H](O)NC(=O)[C@@H]5[C@@H](O)[C@@H](C)CN5C(=O)[C@H]([C@H](C)O)NC(=O)[C@H]([C@H](O)[C@@H](O)c5ccc(O)cc5)NC(=O)[C@@H]5C[C@@H](O)CN5C(=O)[C@H]([C@H](C)O)NC4=O)cc3)cc2)cc1 |  | 0.015 µg/mL
C=C(Cl)CN1C[C@H](OCC23C[C@@H]4[C@H](C)CC[C@H]4C4(C=O)CC2C=C(C(C)C)C34C(=O)O)O[C@H](C)C1 | 22 isolates | 0.03 µg/mL
CCC(C)CC(C)CCCCCCCCC(=O)N[C@H]1C[C@@H](O)[C@H](NCCN)NC(=O)[C@@H]2[C@@H](O)CCN2C(=O)[C@H]([C@H](O)CCN)NC(=O)[C@H]([C@H](O)[C@@H](O)c2ccc(O)cc2)NC(=O)[C@@H]2C[C@@H](O)CN2C(=O)[C@H]([C@@H](C)O)NC1=O |  | 0.03–0.5 µg/mL
C[C@H]1[C@H](O)[C@@H](C)/C=C/C=C/C=C/C=C/C=C/C=C/C=C/[C@H](O[C@@H]2O[C@H](C)[C@@H](O)[C@H](N)[C@@H]2O)C[C@@H]2O[C@](O)(C[C@@H](O)C[C@@H](O)CC[C@H](O)[C@@H](O)C[C@@H](O)CC(=O)O[C@H]1C)C[C@H](O)[C@H]2C(=O)O | 85 strains (fluconazole-resistant) | 1 µg/mL
NS(=O)(=O)c1ccc(C(=O)O)cc1 |  | >100 µg/mL
CC12C(=O)c3cccc(O)c3C(=O)C1CC1=C2C(=O)c2c(O)cccc2C1=O |  | 3 µg/mL
C=C(c1ccccc1OCc1cccc(Cl)c1)n1ccnc1 | 106 isolates | 1 µg/mL
C[C@H]1[C@H](O)[C@@H](C)/C=C/C=C/C=C/C=C/C=C/C=C/C=C/[C@H](O[C@@H]2O[C@H](C)[C@@H](O)[C@H](N)[C@@H]2O)C[C@@H]2O[C@](O)(C[C@@H](O)C[C@@H](O)CC[C@H](O)[C@@H](O)C[C@@H](O)CC(=O)O[C@H]1C)C[C@H](O)[C@H]2C(=O)O | ATCC 10231 | 0.12 µg/mL
Clc1ccc(COC(Cn2ccnc2)c2ccc(Cl)cc2Cl)c(Cl)c1 | 106 isolates | 2 µg/mL
C[C@@H](c1nc(-c2ccc(C#N)cc2)cs1)[C@](O)(Cn1cncn1)c1ccc(F)cc1F | 85 strains (fluconazole-resistant) | 0.25 µg/mL
CN(C/C=C/C#CC(C)(C)C)Cc1cccc2ccccc12 | CI_3 | 1 µg/mL
Clc1ccc(CSC(Cn2ccnc2)c2ccc(Cl)cc2Cl)cc1 | 106 isolates | 0.5 µg/mL

Repeating the first 2 entries:

SMILES	strain or isolate	result
C[C@H]1[C@H](O)[C@@H](C)/C=C/C=C/C=C/C=C/C=C/C=C/C=C/[C@H](O[C@@H]2O[C@H](C)[C@@H](O)[C@H](N)[C@@H]2O)C[C@@H]2O[C@](O)(C[C@@H](O)C[C@@H](O)CC[C@H](O)[C@@H](O)C[C@@H](O)CC(=O)O[C@H]1C)C[C@H](O)[C@H]2C(=O)O	183 strains	0.125 µg/mL
Clc1ccc(COC(Cn2ccnc2)c2ccc(Cl)cc2Cl)cc1		6.25 µg/mL